Compound potency records, mixed from different reports. Data source: NIAID ChemDB in PubChem.

All rows: whole-cell or culture tests; species: Mycobacterium tuberculosis

Percent inhibition refers to the dose given; in toxicity tests it is the harm to the cells.

compound	read by	strain or isolate	measure	dose	value
COc1ccccc1CCNCCNC(C)C12CC3CC(CC(C3)C1)C2	-	-	MIC	-	50 µM
CC1(C)CC[C@]2(C(=O)O)CC[C@]3(C)C(=CC[C@@H]4[C@@]5(C)C[C@H](O)[C@H](O)[C@@](C)(C(=O)O)[C@@H]5CC[C@]43C)[C@@H]2C1	BACTEC	H37Rv	inhibition	12.5 µg/mL	28%
Cc1cc(C)[nH]c(=O)n1	-	H37Rv	MIC	-	>100 µg/mL
O=C1c2ccccc2OC(c2ccccc2)C1(Br)Br	-	-	EC50	-	>12.5 µg/mL
O=C(c1ccccc1)N1C(=S)N(c2ccccn2)C(=Nc2ccccc2)C1=Nc1ccccc1	BACTEC	H37Rv	inhibition	12.5 µg/mL	0%
c1ccc(C(CCNCCNC2CCCCCCC2)c2ccccc2)cc1	-	-	MIC	-	6.25 µM
CCOc1ccccc1CNCCNCCNc1ccccc1	-	-	MIC	-	25 µM
CO[C@H]1/C=C/O[C@@]2(C)Oc3c(C)c(O)c4c(=O)c(c5oc6cc(N7CCN(C(C)C)CC7)cc(=O)c6nc5c4c3=C2O)NC(=O)/C(C)=C\C=C\[C@H](C)[C@H](O)[C@@H](C)[C@@H](O)[C@@H](C)[C@H](OC(C)=O)[C@@H]1C	-	2275 (rifampin-resistant)	MIC	-	0.4 µg/mL
Cc1cc(Cl)nc(N)n1	-	H37Rv	MIC	-	>100 µg/mL
Cc1ccc(Nc2cc(Cl)nc(N)n2)cc1Cl	BACTEC	H37Rv	MIC bound	-	≤12.5 µg/mL
CC(C)CC(C)NCCNC[C@]1(C)CCC[C@]2(C)c3ccc(C(C)C)cc3CC[C@@H]12	-	-	MIC	-	25 µM
Nc1ccc(Nc2ccc(O)cc2)c(S(=O)(=O)O)c1	-	H37Rv	MIC	-	>100 µg/mL
c1cc(NCCNC23CC4CC(CC(C4)C2)C3)c2cccnc2c1	-	-	MIC	-	6.25 µM
CCOC(=O)Nc1cc(NC(c2ccccc2)c2ccccc2)c([N+](=O)[O-])c(NCC(=O)c2ccc(Cl)cc2)n1	-	H37Rv	EC50	-	>12.5 µg/mL
c1ccc2[nH]c(SSc3nc4ccccc4[nH]3)nc2c1	BACTEC	H37Rv	inhibition	12.5 µg/mL	42%
CCOC(=O)Nc1cc(NC(O)/C(=C/O)c2cccc([N+](=O)[O-])c2)c([N+](=O)[O-])c(N)n1	-	H37Rv	EC50	-	>12.5 µg/mL
COc1ccc(C2Oc3cc(OC)cc(OC)c3C(=O)C2Br)cc1	-	H37Rv	inhibition	12.5 µg/mL	0%
COc1cccc(/C=N/NC(=O)C[N+](C)(C)C)c1OC	BACTEC	H37Rv	MIC bound	-	>12.5 µg/mL
CO[C@H]1/C=C/O[C@@]2(C)Oc3c(C)c(O)c4c(O)c(c5c(c4c3C2=O)NC2(CCN(CC(C)C)CC2)N=5)=NC(=O)/C(C)=C\C=C\[C@H](C)[C@H](O)[C@@H](C)[C@@H](O)[C@@H](C)[C@H](OC(C)=O)[C@@H]1C	-	2847 (rifampin-sensitive)	MIC	-	0.025 µg/mL
COc1ccc(-c2cc(=O)c3ccc4c(O)cccc4c3o2)cc1	BACTEC	H37Rv	inhibition	12.8 µg/mL	0%
c1ccc(CCCNCCNCCC(c2ccccc2)c2ccccc2)cc1	-	-	MIC	-	37.5 µM
COc1ccc(CCNCCNC(c2ccccc2)c2ccccc2)cc1OC	-	-	MIC	-	50 µM
CCOC(=O)C(=O)C1C(=O)C(=O)C(CCc2cccc3ccccc23)C1=O	-	H37Rv	MIC	-	>100 µg/mL
CC(CNCCc1ccccc1F)NC[C@@H]1CC[C@H]2C[C@@H]1C2(C)C	-	-	MIC	-	25 µM
O=C1C=Cc2ccccc2C1=O	-	H37Rv	MIC	-	>100 µg/mL
CCOC(=O)Nc1cc(Cl)c([N+](=O)[O-])c(N)n1	-	H37Rv	EC50	-	>12.5 µg/mL
FC(F)(F)c1ccc(CNCCNCCC2=CCCCC2)cc1	-	-	MIC	-	50 µM
C=C[C@H]1CN2CC[C@H]1C[C@@H]2[C@@H](O)c1ccnc2ccc(OC)cc12	BACTEC	H37Rv	inhibition	128 µg/mL	59%
CCCCCCCCCCCNCCNCc1ccccc1OCC	-	-	MIC	-	25 µM
C[C@@H]1[C@H]2C[C@@H](C[C@H]1NCCNCCc1cccc(F)c1)C2(C)C	-	-	MIC	-	50 µM
Nc1cc2nc3ccccc3nc2cc1O	-	H37Rv	MIC	-	>100 µg/mL
Cn1nc(Cc2ccc(Cl)cc2)n(N)c1=O	BACTEC	H37Rv	inhibition	12.5 µg/mL	0%
COc1cccc(C(=O)O)c1I	-	H37Rv	MIC	-	>100 µg/mL
CCC1C[N+]2=C(c3cc(OC)c(OC)cc3CC2)c2c1cc1n2CCc2cc(OC)c(OC)cc2-1	-	INH-r	MIC	-	12.8 µg/mL
O=C(CC(=O)c1ccccc1)Nc1ccc(S(=O)(=O)N(c2ccccc2)c2ccccc2)cc1	-	H37Rv	MIC	-	50 µg/mL
CCOC(=O)Nc1cc(N(CCc2ccccc2)Cc2ccccc2)c2nc(C)oc2c1	-	H37Rv	EC50	-	<12.5 µg/mL
OCCNCCO	-	H37Rv	MIC	-	>100 µg/mL
COc1ccc(-c2cc(=O)c3c(OC)cc(OC)c([C@H]4C(=O)c5c(OC)cc(OC)cc5O[C@@H]4c4ccc(OC)cc4)c3o2)cc1	-	H37Rv	EC50	-	<12.5 µg/mL
CN1CN(c2ccccc2)C2(CCN(CCCC3Cc4ccccc4O3)CC2)C1=O	BACTEC	H37Rv	MIC bound	-	>12.5 µg/mL
Cc1cc(C)c(C2=C(O)c3ccccc3C(=O)C2=O)c(C)c1	-	H37Rv	MIC	-	100 µg/mL
CCc1ccccc1NC(=O)/C(CC(=O)c1c(C)n([O-])c2ccccc2[n+]1=O)=N/NS(=O)(=O)c1ccc(C)cc1	BACTEC	H37Rv	inhibition	12.5 µg/mL	70%
O=C(CCN1CCCCC1)c1ccccc1	-	H37Rv	MIC	-	>100 µg/mL
O=C1c2ccccc2OC(c2ccccc2)C1I	-	-	inhibition	12.5 µg/mL	0%
CCOC(=O)CN1CC(C)(C)N(CC(=O)OCC)CC1(C)C	BACTEC	H37Rv	MIC	-	≥12.8 µg/mL
Oc1ccc(-c2cc(O)c(-c3ccc(O)cc3)cc2O)cc1	-	H37Rv	MIC	-	>100 µg/mL
CCC1CCCCN1CCNC/C=C(\C)CCC=C(C)C	-	-	MIC	-	12.5 µM
COC(=O)C1(C)C=C(Nc2ccccc2)C(=O)N1c1ccccc1	BACTEC	H37Rv	MIC bound	-	>12.5 µg/mL
Cc1cccc(CNCCNC[C@]2(C)CCC[C@]3(C)c4ccc(C(C)C)cc4CC[C@@H]23)c1	-	-	MIC	-	12.5 µM
Cc1ccc(CNCCNCc2ccccc2)cc1	-	-	MIC	-	25 µM
CCOC(=O)c1cc(C)n(-c2ccc(S(=O)(=O)c3ccc(-n4c(C)cc(C(=O)OCC)c4C)cc3)cc2)c1C	-	H37Rv	MIC	-	>100 µg/mL
CC(C)c1ccc2c(c1)CC[C@H]1[C@](C)(CNCCNCCc3ccccc3Cl)CCC[C@]21C	-	-	MIC	-	50 µM
COc1cccc(NC(=S)Nc2ccccc2)c1	-	H37Rv	MIC	-	50 µg/mL
N#CC(/C(=N/NC(=O)C(=O)NN)C(=O)Nc1nc([N+](=O)[O-])cs1)c1ccc(Cl)cc1	BACTEC	H37Rv	inhibition	12.5 µg/mL	0%
O=C(NCc1ccccc1)NCc1ccccc1	-	H37Rv	MIC	-	>100 µg/mL
Cn1c2c(c(=O)n(C)c1=O)C(C(=O)O)CC(=O)N2	resazurin	H37Rv	MIC bound	-	>6.25 µg/mL
CCOC(=O)Nc1cc(NC(c2ccccc2)c2ccccc2)c2[nH]c(=O)[nH]c2n1	-	H37Rv	EC50	-	>12.5 µg/mL
CCOC(=O)c1c(C)oc2cc3c(C(=O)OCC)c(C)oc3cc12	BACTEC	H37Rv	MIC bound	-	>12.5 µg/mL
Cc1cc(O)ccc1N.Cl	-	H37Rv	MIC	-	50 µg/mL
O=C1C(Cl)=C(Nc2nccs2)C(=O)c2ccccc21	BACTEC	H37Rv	inhibition	12.5 µg/mL	29%
COc1ccc2[nH]cc(CCNCCNCC(C)c3ccccc3)c2c1	-	-	MIC	-	50 µM
Cl.Nc1csc(N)n1	-	H37Rv	MIC	-	>100 µg/mL
CC(C)CNP(=S)(NCC(C)C)c1ccccc1	BACTEC	H37Rv	inhibition	6.25 µg/mL	0%
Nc1cc(S(=O)(=O)O)c2cccc(S(=O)(=O)O)c2c1	-	H37Rv	MIC	-	>100 µg/mL
COc1ccc(CNCCNCc2ccccc2Sc2ccccc2CO)cc1OC	-	-	MIC	-	6.25 µM
CCOc1ccc(N2CC(=O)N3CCCCN3C(=O)C2)cc1	BACTEC	H37Rv	MIC bound	-	>12.5 µg/mL
Cc1cccc(C(=O)O)n1	-	H37Rv	MIC	-	>100 µg/mL
Cc1ccc(N=Nc2c(C)nn(C(=S)S)c2C)cc1	BACTEC	H37Rv	MIC	-	≥12.5 µg/mL
Cl.Nc1ccc(C(=O)O)cc1N	-	H37Rv	MIC	-	>100 µg/mL

Repeating the first 4 entries:

compound | read by | strain or isolate | measure | dose | value
COc1ccccc1CCNCCNC(C)C12CC3CC(CC(C3)C1)C2 | - | - | MIC | - | 50 µM
CC1(C)CC[C@]2(C(=O)O)CC[C@]3(C)C(=CC[C@@H]4[C@@]5(C)C[C@H](O)[C@H](O)[C@@](C)(C(=O)O)[C@@H]5CC[C@]43C)[C@@H]2C1 | BACTEC | H37Rv | inhibition | 12.5 µg/mL | 28%
Cc1cc(C)[nH]c(=O)n1 | - | H37Rv | MIC | - | >100 µg/mL
O=C1c2ccccc2OC(c2ccccc2)C1(Br)Br | - | - | EC50 | - | >12.5 µg/mL

MIC bound comes from a single tested concentration. Neighbouring rows are from separate reports. ECn is the concentration giving n% inhibition of infection, replication or growth. Blank or dashed fields: not listed here.